Experimental findings from patent US11413279B2, “Methods and compositions for the antiviral use of synthetic lysine analogs and mimetics” (priority 2017, dated 2022) are described below.

This data set has as its system cell medium used for HIV-1.

For `NC[C@H]1CC[C@H](C(=O)O)CC1` [Tranexamic Acid, tranexamic acid], the “maximum concentration that could be used without cytotoxicity” value is recorded as 4 % (w/v).
